Single amino acid changes in Zika NS2B-NS3 and viral growth

Data from the supplement of Ni et al. 2025, doi:10.1038/s41467-025-63602-z.

Protein: NS2B and the protease part of NS3 of Zika virus strain MR766. Positions count along the chain below; NS2B spans 2-131 and NS3 starts at 132.
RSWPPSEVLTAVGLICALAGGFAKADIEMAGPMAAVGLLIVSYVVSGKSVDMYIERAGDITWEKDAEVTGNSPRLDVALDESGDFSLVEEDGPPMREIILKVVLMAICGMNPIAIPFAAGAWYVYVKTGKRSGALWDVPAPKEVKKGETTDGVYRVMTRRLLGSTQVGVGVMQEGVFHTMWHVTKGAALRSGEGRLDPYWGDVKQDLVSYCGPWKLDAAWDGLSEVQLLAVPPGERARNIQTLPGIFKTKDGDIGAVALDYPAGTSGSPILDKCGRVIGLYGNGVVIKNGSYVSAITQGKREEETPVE

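Libraries of single mutants were passaged as virus pools on Huh-7.5 cells. Deep sequencing gave the change in frequency of each mutant relative to wild type, averaged over three replicate libraries (two for positions 207-308). The study looked for pockets that tolerate few changes, as a guide for inhibitor design.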

Scale: log2 effect, wild type = 0; the lower, the more harmful to the virus. Substitutions are written as wild-type residue, site number, new residue. Values above 0 are not proof of better growth: six high scorers were tested one by one, five grew less well than wild type and one about as well. Positions 1-103, 104-206 and 207-308 were made and measured as separate libraries. An asterisk is a stop codon; stop codons read about -7, near the floor of the assay. The authors count -1 or higher as tolerated. Position 1 is the last residue of NS2A.

substitution,log2 growth effect
W136E,-6.46
S82Q,-2.33
V45D,-4.96
A230N,-4.13
V50D,-5.96
A118L,-6.63
V307F,-2.37
G120Y,-3.10
A295D,-5.82
A25G,-4.53
A35K,-5.93
E90H,-0.97
G201P,-7.05
A23K,-5.03
E7R,-6.82
A237K,0.24
S209G,-6.60
S266A,-5.60
A258V,-6.14
V8A,-2.90
L75A,-7.49
S2E,-7.21
G129F,-5.68
M157Q,-5.24
E67L,-0.53
E143C,-0.64
A19L,-3.95
N283T,-6.50
G21N,-3.41
E302A,-0.73
A17L,-2.91
V144A,-2.17
L161I,-1.04
F117A,-1.59
E97*,-4.35
I240H,-6.25
A114R,-8.01
I40S,-1.87
Y292G,-4.62
E67C,-3.83
W220H,-6.19
L196C,-1.90
E81A,-5.91
P93R,-5.80
S266Y,-5.51
T179F,-5.86
A66S,-5.82
A66N,-6.15
D251R,-6.78
E308N,1.66
V68S,-7.48
G212L,-7.91
S6Y,-3.66
L259W,-5.32
S42F,-5.55
V68P,-6.82
R74L,-1.21
Y199V,-1.36
R190F,-4.34
W122F,-2.19
E7F,-5.89
V208K,-7.64
R56V,-5.38
R238E,1.22
Q173F,-2.07
K215P,-7.70
W214K,-7.85
A78D,-0.59
L38I,-3.40
G252Q,-2.19
Y292S,-6.05
D59L,-6.95
C211M,-0.53
V307*,-6.37
R74T,-0.40
W136Y,-6.53
E302H,-0.86
M95K,-2.55
W136V,-7.43
G31Q,-4.54
Y123S,-4.76
D51R,-7.42
G47K,-6.21
D217T,-5.88
K146M,-1.48
I270N,-4.45
I15V,-0.32
L228V,-5.91
P262R,-5.98
Q173I,-5.10
P73W,-5.36
S291H,-4.51
E148D,-1.53
K24I,-5.91
R238S,0.87
G275F,-3.99
A30F,-6.07
L223E,-0.75
T69Y,-6.20
A218Y,-4.75
T265V,-4.04
L100M,0.19
S224E,-3.08
D84H,-6.92
E225I,-5.93
K300G,-6.53
M180D,-4.25
T158D,-4.98
V293S,-6.28
G284H,-4.23
Y123T,-2.94
L196N,-5.03
G201E,-6.26
E67M,-2.54
S268R,-5.82
E308R,-1.06
T305*,-6.72
V208D,-7.26
M105D,-5.12
A219K,0.89
L38Y,-5.66
T242Y,-5.22
E89C,-0.82
I287S,-0.07

The last 14 entries again:

substitution	log2 growth effect
Y123T	-2.94
L196N	-5.03
G201E	-6.26
E67M	-2.54
S268R	-5.82
E308R	-1.06
T305*	-6.72
V208D	-7.26
M105D	-5.12
A219K	0.89
L38Y	-5.66
T242Y	-5.22
E89C	-0.82
I287S	-0.07